Reference: publication PMC11904993, “Humanized Candida and NanoBiT Assays Expedite Discovery of Bdf1 Bromodomain Inhibitors With Antifungal Potential” (Advanced Science, 2025)

Protein sequences, listed by entry. Tags and fused reporters are not part of them. Residues count along the entry.
UniProt Q6FWV7, 100-228 limits assumed: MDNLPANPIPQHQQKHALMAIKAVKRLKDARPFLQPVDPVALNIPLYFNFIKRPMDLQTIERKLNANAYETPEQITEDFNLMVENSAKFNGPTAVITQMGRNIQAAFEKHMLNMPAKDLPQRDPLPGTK

What follows are compounds tested against CgBdf1 BD1 (Candida glabrata, UniProt Q6FWV7) (assay: HTRF assay, inhibition of H4ac4 peptide binding). Details: read-out: IC50 CgBdf1 BD1; Table S3; estimate, preliminary single-replicate HTRF assay.
Parameters: species or system C. glabrata

SMILES	IC50 [µM]
Cc1nnc(-c2ccc3ccn(CC(=O)Nc4cccc(Cl)c4)c3c2)o1	> 20
CCOc1cc(-c2ccccc2)nc2ccc(NS(=O)(=O)c3ccc(NC(C)=O)cc3)cc12	6.1
COc1cc2nc(C(=O)N3CCCCC3)cc(Nc3ccc(F)c(F)c3)c2cc1OC	6.7
CC(=O)NCC(=O)N1CCC(c2cc(-c3ccc(F)cc3)n[nH]2)CC1	> 20
CCc1nnc(-c2ccc3ccn(CC(=O)Nc4cccc(OC)c4)c3c2)o1	> 20
Cc1ccc(-c2nnc(C)c(NCc3ccc4c(c3)OCO4)n2)cc1	> 20
Cn1nccc1C(=O)NCc1ccc(-c2nc(-c3ccc(F)cc3)no2)s1	14
CC(=O)Nc1ccc(NC(=O)Cn2ccn3nc(-c4ccc(F)cc4)c(CO)c3c2=O)cc1	> 20

These compounds were tested on CgBdf1 BD1 (assay: not given). Details: CgBdf1 BD1 WT; normalized peptide array signal.

SMILES	Normalized (0 to 100%), WT, Average [%]
Cc1nnc(-c2ccc3ccn(CC(=O)Nc4cccc(Cl)c4)c3c2)o1	1.75
CCOc1cc(-c2ccccc2)nc2ccc(NS(=O)(=O)c3ccc(NC(C)=O)cc3)cc12	1.45
COc1cc2nc(C(=O)N3CCCCC3)cc(Nc3ccc(F)c(F)c3)c2cc1OC	3.58
CC(=O)NCC(=O)N1CCC(c2cc(-c3ccc(F)cc3)n[nH]2)CC1	1.17
CCc1nnc(-c2ccc3ccn(CC(=O)Nc4cccc(OC)c4)c3c2)o1	2.65
Cc1ccc(-c2nnc(C)c(NCc3ccc4c(c3)OCO4)n2)cc1	11
Cn1nccc1C(=O)NCc1ccc(-c2nc(-c3ccc(F)cc3)no2)s1	2.14
CC(=O)Nc1ccc(NC(=O)Cn2ccn3nc(-c4ccc(F)cc4)c(CO)c3c2=O)cc1	1.26

Same assay, conditions: CgBdf1 BD1 WT; peptide array signal, left replicate

SMILES	Raw data, WT, Left
Cc1nnc(-c2ccc3ccn(CC(=O)Nc4cccc(Cl)c4)c3c2)o1	0.004726
CCOc1cc(-c2ccccc2)nc2ccc(NS(=O)(=O)c3ccc(NC(C)=O)cc3)cc12	0.007876
COc1cc2nc(C(=O)N3CCCCC3)cc(Nc3ccc(F)c(F)c3)c2cc1OC	0.01071
CC(=O)NCC(=O)N1CCC(c2cc(-c3ccc(F)cc3)n[nH]2)CC1	0.0003151
CCc1nnc(-c2ccc3ccn(CC(=O)Nc4cccc(OC)c4)c3c2)o1	0.01166
Cc1ccc(-c2nnc(C)c(NCc3ccc4c(c3)OCO4)n2)cc1	0.07782
Cn1nccc1C(=O)NCc1ccc(-c2nc(-c3ccc(F)cc3)no2)s1	0.004411
CC(=O)Nc1ccc(NC(=O)Cn2ccn3nc(-c4ccc(F)cc4)c(CO)c3c2=O)cc1	0.005356

Same assay, conditions: CgBdf1 BD1 WT; peptide array signal, right replicate

SMILES	Raw data, WT, Rigt
Cc1nnc(-c2ccc3ccn(CC(=O)Nc4cccc(Cl)c4)c3c2)o1	0.03025
CCOc1cc(-c2ccccc2)nc2ccc(NS(=O)(=O)c3ccc(NC(C)=O)cc3)cc12	0.02111
COc1cc2nc(C(=O)N3CCCCC3)cc(Nc3ccc(F)c(F)c3)c2cc1OC	0.06081
CC(=O)NCC(=O)N1CCC(c2cc(-c3ccc(F)cc3)n[nH]2)CC1	0.023
CCc1nnc(-c2ccc3ccn(CC(=O)Nc4cccc(OC)c4)c3c2)o1	0.04127
Cc1ccc(-c2nnc(C)c(NCc3ccc4c(c3)OCO4)n2)cc1	0.1396
Cn1nccc1C(=O)NCc1ccc(-c2nc(-c3ccc(F)cc3)no2)s1	0.03844
CC(=O)Nc1ccc(NC(=O)Cn2ccn3nc(-c4ccc(F)cc4)c(CO)c3c2=O)cc1	0.01985

Same assay, conditions: CgBdf1 BD1 YF mutant; normalized peptide array signal

SMILES	Normalized (0 to 100%), YF mutant, Average [%]
Cc1nnc(-c2ccc3ccn(CC(=O)Nc4cccc(Cl)c4)c3c2)o1	0.308
CCOc1cc(-c2ccccc2)nc2ccc(NS(=O)(=O)c3ccc(NC(C)=O)cc3)cc12	0.247
COc1cc2nc(C(=O)N3CCCCC3)cc(Nc3ccc(F)c(F)c3)c2cc1OC	0.185
CC(=O)NCC(=O)N1CCC(c2cc(-c3ccc(F)cc3)n[nH]2)CC1	0.524
CCc1nnc(-c2ccc3ccn(CC(=O)Nc4cccc(OC)c4)c3c2)o1	0.308
Cc1ccc(-c2nnc(C)c(NCc3ccc4c(c3)OCO4)n2)cc1	0.509
Cn1nccc1C(=O)NCc1ccc(-c2nc(-c3ccc(F)cc3)no2)s1	0.308
CC(=O)Nc1ccc(NC(=O)Cn2ccn3nc(-c4ccc(F)cc4)c(CO)c3c2=O)cc1	0.308

Same assay, conditions: CgBdf1 BD1 YF mutant; peptide array signal, left replicate

SMILES	Raw data, YF mutant, Left
Cc1nnc(-c2ccc3ccn(CC(=O)Nc4cccc(Cl)c4)c3c2)o1	0.003085
CCOc1cc(-c2ccccc2)nc2ccc(NS(=O)(=O)c3ccc(NC(C)=O)cc3)cc12	0.002159
COc1cc2nc(C(=O)N3CCCCC3)cc(Nc3ccc(F)c(F)c3)c2cc1OC	0.0009254
CC(=O)NCC(=O)N1CCC(c2cc(-c3ccc(F)cc3)n[nH]2)CC1	0.005244
CCc1nnc(-c2ccc3ccn(CC(=O)Nc4cccc(OC)c4)c3c2)o1	0.003085
Cc1ccc(-c2nnc(C)c(NCc3ccc4c(c3)OCO4)n2)cc1	0.007094
Cn1nccc1C(=O)NCc1ccc(-c2nc(-c3ccc(F)cc3)no2)s1	0.003085
CC(=O)Nc1ccc(NC(=O)Cn2ccn3nc(-c4ccc(F)cc4)c(CO)c3c2=O)cc1	0.003085

Same assay, conditions: CgBdf1 BD1 YF mutant; peptide array signal, right replicate

SMILES	Raw data, YF mutant, Right
Cc1nnc(-c2ccc3ccn(CC(=O)Nc4cccc(Cl)c4)c3c2)o1	0.003085
CCOc1cc(-c2ccccc2)nc2ccc(NS(=O)(=O)c3ccc(NC(C)=O)cc3)cc12	0.002776
COc1cc2nc(C(=O)N3CCCCC3)cc(Nc3ccc(F)c(F)c3)c2cc1OC	0.002776
CC(=O)NCC(=O)N1CCC(c2cc(-c3ccc(F)cc3)n[nH]2)CC1	0.005244
CCc1nnc(-c2ccc3ccn(CC(=O)Nc4cccc(OC)c4)c3c2)o1	0.003085
Cc1ccc(-c2nnc(C)c(NCc3ccc4c(c3)OCO4)n2)cc1	0.003085
Cn1nccc1C(=O)NCc1ccc(-c2nc(-c3ccc(F)cc3)no2)s1	0.003085
CC(=O)Nc1ccc(NC(=O)Cn2ccn3nc(-c4ccc(F)cc4)c(CO)c3c2=O)cc1	0.003085

These compounds were tested on CgBdf1 BD2 (assay: not given). Details: CgBdf1 BD2 WT; normalized peptide array signal.

SMILES	Normalized (0 to 100%), WT, Average [%]
Cc1nnc(-c2ccc3ccn(CC(=O)Nc4cccc(Cl)c4)c3c2)o1	0.686
CCOc1cc(-c2ccccc2)nc2ccc(NS(=O)(=O)c3ccc(NC(C)=O)cc3)cc12	0.593
COc1cc2nc(C(=O)N3CCCCC3)cc(Nc3ccc(F)c(F)c3)c2cc1OC	0.39
CC(=O)NCC(=O)N1CCC(c2cc(-c3ccc(F)cc3)n[nH]2)CC1	0.421
CCc1nnc(-c2ccc3ccn(CC(=O)Nc4cccc(OC)c4)c3c2)o1	0.499
Cc1ccc(-c2nnc(C)c(NCc3ccc4c(c3)OCO4)n2)cc1	3.71
Cn1nccc1C(=O)NCc1ccc(-c2nc(-c3ccc(F)cc3)no2)s1	0.405
CC(=O)Nc1ccc(NC(=O)Cn2ccn3nc(-c4ccc(F)cc4)c(CO)c3c2=O)cc1	0.421

Same assay, conditions: CgBdf1 BD2 WT; peptide array signal, left replicate

SMILES	Raw data, WT, Left
Cc1nnc(-c2ccc3ccn(CC(=O)Nc4cccc(Cl)c4)c3c2)o1	0.007798
CCOc1cc(-c2ccccc2)nc2ccc(NS(=O)(=O)c3ccc(NC(C)=O)cc3)cc12	0.004055
COc1cc2nc(C(=O)N3CCCCC3)cc(Nc3ccc(F)c(F)c3)c2cc1OC	0.002183
CC(=O)NCC(=O)N1CCC(c2cc(-c3ccc(F)cc3)n[nH]2)CC1	0.004367
CCc1nnc(-c2ccc3ccn(CC(=O)Nc4cccc(OC)c4)c3c2)o1	0.004991
Cc1ccc(-c2nnc(C)c(NCc3ccc4c(c3)OCO4)n2)cc1	0.0315
Cn1nccc1C(=O)NCc1ccc(-c2nc(-c3ccc(F)cc3)no2)s1	0.004055
CC(=O)Nc1ccc(NC(=O)Cn2ccn3nc(-c4ccc(F)cc4)c(CO)c3c2=O)cc1	0.004055

Same assay, conditions: CgBdf1 BD2 WT; peptide array signal, right replicate

SMILES	Raw data, WT, Rigt
Cc1nnc(-c2ccc3ccn(CC(=O)Nc4cccc(Cl)c4)c3c2)o1	0.005926
CCOc1cc(-c2ccccc2)nc2ccc(NS(=O)(=O)c3ccc(NC(C)=O)cc3)cc12	0.007798
COc1cc2nc(C(=O)N3CCCCC3)cc(Nc3ccc(F)c(F)c3)c2cc1OC	0.005614
CC(=O)NCC(=O)N1CCC(c2cc(-c3ccc(F)cc3)n[nH]2)CC1	0.004055
CCc1nnc(-c2ccc3ccn(CC(=O)Nc4cccc(OC)c4)c3c2)o1	0.004991
Cc1ccc(-c2nnc(C)c(NCc3ccc4c(c3)OCO4)n2)cc1	0.04273
Cn1nccc1C(=O)NCc1ccc(-c2nc(-c3ccc(F)cc3)no2)s1	0.004055
CC(=O)Nc1ccc(NC(=O)Cn2ccn3nc(-c4ccc(F)cc4)c(CO)c3c2=O)cc1	0.004367

Same assay, conditions: CgBdf1 BD2 YF mutant; normalized peptide array signal

SMILES	Normalized (0 to 100%), YF mutant, Average [%]
Cc1nnc(-c2ccc3ccn(CC(=O)Nc4cccc(Cl)c4)c3c2)o1	0.706
CCOc1cc(-c2ccccc2)nc2ccc(NS(=O)(=O)c3ccc(NC(C)=O)cc3)cc12	0.567
COc1cc2nc(C(=O)N3CCCCC3)cc(Nc3ccc(F)c(F)c3)c2cc1OC	0.567
CC(=O)NCC(=O)N1CCC(c2cc(-c3ccc(F)cc3)n[nH]2)CC1	0.767
CCc1nnc(-c2ccc3ccn(CC(=O)Nc4cccc(OC)c4)c3c2)o1	0.613
Cc1ccc(-c2nnc(C)c(NCc3ccc4c(c3)OCO4)n2)cc1	0.798
Cn1nccc1C(=O)NCc1ccc(-c2nc(-c3ccc(F)cc3)no2)s1	0.752
CC(=O)Nc1ccc(NC(=O)Cn2ccn3nc(-c4ccc(F)cc4)c(CO)c3c2=O)cc1	0.567

Same assay, conditions: CgBdf1 BD2 YF mutant; peptide array signal, left replicate

SMILES	Raw data, YF mutant, Left
Cc1nnc(-c2ccc3ccn(CC(=O)Nc4cccc(Cl)c4)c3c2)o1	0.01012
CCOc1cc(-c2ccccc2)nc2ccc(NS(=O)(=O)c3ccc(NC(C)=O)cc3)cc12	0.007669
COc1cc2nc(C(=O)N3CCCCC3)cc(Nc3ccc(F)c(F)c3)c2cc1OC	0.009816
CC(=O)NCC(=O)N1CCC(c2cc(-c3ccc(F)cc3)n[nH]2)CC1	0.01442
CCc1nnc(-c2ccc3ccn(CC(=O)Nc4cccc(OC)c4)c3c2)o1	0.01012
Cc1ccc(-c2nnc(C)c(NCc3ccc4c(c3)OCO4)n2)cc1	0.01595
Cn1nccc1C(=O)NCc1ccc(-c2nc(-c3ccc(F)cc3)no2)s1	0.01135
CC(=O)Nc1ccc(NC(=O)Cn2ccn3nc(-c4ccc(F)cc4)c(CO)c3c2=O)cc1	0.007362

Same assay, conditions: CgBdf1 BD2 YF mutant; peptide array signal, right replicate

SMILES	Raw data, YF mutant, Right
Cc1nnc(-c2ccc3ccn(CC(=O)Nc4cccc(Cl)c4)c3c2)o1	0.003988
CCOc1cc(-c2ccccc2)nc2ccc(NS(=O)(=O)c3ccc(NC(C)=O)cc3)cc12	0.003681
COc1cc2nc(C(=O)N3CCCCC3)cc(Nc3ccc(F)c(F)c3)c2cc1OC	0.001534
CC(=O)NCC(=O)N1CCC(c2cc(-c3ccc(F)cc3)n[nH]2)CC1	0.0009202
CCc1nnc(-c2ccc3ccn(CC(=O)Nc4cccc(OC)c4)c3c2)o1	0.002147
Cc1ccc(-c2nnc(C)c(NCc3ccc4c(c3)OCO4)n2)cc1	0
Cn1nccc1C(=O)NCc1ccc(-c2nc(-c3ccc(F)cc3)no2)s1	0.003681
CC(=O)Nc1ccc(NC(=O)Cn2ccn3nc(-c4ccc(F)cc4)c(CO)c3c2=O)cc1	0.003988
